From patent US20120121633A1, “HIV CD4 BINDING SITE BASED COVALENT IMMUNOGEN COMPOSITIONS” (priority 2010, published 2012)

Biological target: KLH-E-416-433 (HIV-1 gp120, consensus subtype B epitope sequence)

Substance: soluble CD4 (from UniProt P01730 26-396) (receptor)
- Kd: 182 nM
